## Screening data, single-dose tests

Measurements from “University of Dundee, Small-Polar-MMV Screening Library” (2021), ChEMBL document CHEMBL3988442.

The filed quantity is “Percent Effect” (%).
How 0% and 100% were set is not recorded. Most values in the screen are low, and negative values occur.
Many other results are left out here, so strong results are more common than in the screen.
Two or more numbers in one place are separate tests of the same structure; such repeats can differ widely.

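Whole-cell growth test on Mycobacterium tuberculosis, read after 3 days in glucose-containing 7H9 medium; the read-out is not stated. Concentration: 50 µM. Direction is inferred from retests: higher values go with more growth inhibition. Size under these conditions: about 69,000 compounds, about 760 of them at 50% or above in at least one test.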

- Cc1[nH]c2ccc(CNc3cc(C(N)=O)ccn3)cc2c1C | 12.22%
- Cc1noc(C)c1CN1CC[C@H](OCC2CC2)[C@@H](Cc2ccccc2)C1 | 41.1%
- Cc1nnsc1C(=O)NCCNS(=O)(=O)c1cccs1 | -4.286%
- O=C1N(Cc2ccc(F)cc2)CCCC12CCN(C1CCSCC1)C2 (centres unmarked) | 49.19% & 68.7%
- Cn1ccnc1-c1ccc(NCC2COCCO2)nn1 (centres unmarked) | -11.31%
- CCN(CC)c1nc(Nc2cccc(C(C)O)c2)nc2ccccc12 (centres unmarked) | 104.3%
- CSc1ncnc(NCc2cccs2)c1C#N | 15.88% & 3.567%
- O=C(O)C(F)(F)F.O=C1COC2(CCN(c3ccccn3)CC2)CN1 | 65.4%
- COc1ccc(OC)c(C(C)Nc2ncnc3c2NC(=O)CN3)c1 (centres unmarked) | 19.71%
- c1ccc(Oc2ccc(OC34CCCN(CC3)C4)cc2)cc1 (centres unmarked) | 75.14% & 70.84%
- Nc1nc2c(c(N3CCC(CCn4cccn4)CC3)n1)CCNCC2 | 8.447%
- O=c1n(CCSCc2ccccc2F)nc2ccccn12 | 34.94%
- COc1cc(OC)cc(-c2cccc3c2OC(CN)C3)c1 (centres unmarked) | 51.62% & 30.69%
- N#CCCN(Cc1cccnc1)C(=O)c1cc(Cl)c[nH]1 | 31.12%
- CNC(=O)Nc1cc(-c2ccc(Br)cc2)nn1CCO | 2.164% & 22.95%
- CSCC(C)(O)CNc1ncccc1C(F)(F)F (centres unmarked) | 4.129%
- CN1CCC2(CC1)CC(NC(=O)c1csnn1)c1ccccc1O2.O=C(O)C(F)(F)F (centres unmarked) | 47.7%
- Cc1cc(C)nc(N2Cc3cnn(Cc4ccc(F)cc4)c3C2)n1 | -0.9694%
- Cn1cc(CNCC2(O)CCCN(Cc3ccc(F)c(F)c3)C2=O)cn1 (centres unmarked) | -33.76%
- COc1cccc(-c2noc3c2CN(c2ncnc4c2CCC4)CC3)c1 | 21.03%
- C[C@H](O)CNc1cc(-c2ccccc2)ncn1 | 9.159%
- O=C(Nc1ccc(F)cc1)NC1(CCO)CCOCC1 | 4.883%
- Cc1nc(N2CCCC2)nc2c1CCN(Cc1ccsc1)CC2.O=C(O)C(F)(F)F | 85.4% & 81.34%
- CN(C)S(=O)(=O)c1ccc(CN2CCC(c3ccccc3)C2)o1 (centres unmarked) | 6.935% & 13.68%
- CCCc1nc(NCCc2ccccc2)c2c(n1)c(C)nn2CC | 47.74% & 24.83%
- CS(=O)(=O)NCC1CCCCN1Cc1ccccc1C#N (centres unmarked) | 18.82%
- Cc1n[nH]c(C)c1CC(=O)N1CC[C@@](C)(O)[C@@H](Cc2ccccc2)C1 | 9.004%
- CCNC(=O)NC(=O)CNC(C)(C)c1ccc2c(c1)OCO2 | -2.39% & -6.064%
- COCCC(C)NC(=O)Nc1ccc(N2CCOC2=O)c(OC)c1 (centres unmarked) | 102.8%

2 of the entries, repeated:

compound	percent effect
Cc1n[nH]c(C)c1CC(=O)N1CC[C@@](C)(O)[C@@H](Cc2ccccc2)C1	9.004
Cc1nc(N2CCCC2)nc2c1CCN(Cc1ccsc1)CC2.O=C(O)C(F)(F)F	85.4 & 81.34